Measured values from several laboratories, pooled; numbers as filed in NIAID ChemDB.

Common to all: host cell toxicity; cells: MT-4; measure: CC50

CCn is the concentration with n% toxicity to the cells. Lines come from different laboratories, so protocols vary.

compound | result
Cc1cn([C@@H]2O[C@H](CO[Si](C)(C)C(C)(C)C)C3(OS(=O)(=O)C=C3N)[C@H]2O[Si](C)(C)C(C)(C)C)c(=O)n(CCOC(=O)[C@@H](N)C(C)C)c1=O | 20 µM
Cc1cn([C@H]2C[C@H](N=[N+]=[N-])[C@@H](CO)O2)c(=O)[nH]c1=O | 75 µM
CCN1c2cc(C)c(C)cc2N(C)S(=O)(=O)c2cccnc21 | >250 µM
CCCCN(CC)C(=O)Oc1nsnc1-c1c(Cl)cccc1Cl | 44.3 µM
Nc1ccn([C@@H]2CO[C@H](CO)S2)c(=O)n1 | >500 µM
C[C@@H]1[C@H](O)[C@@H](C)/C=C/C=C/C=C/C=C/C=C/C=C/C=C/[C@H](O[C@@H]2O[C@H](C)[C@@H](O)[C@H](N)[C@@H]2O)CC2O[C@](O)(CC(O)C(O)CCC(O)CC(O)CC(O)CC(=O)O[C@H]1C)CC(O)C2C(=O)O.O=S(=O)(O)O | >2000 µg/mL
O=C(O)C(=O)CC(=O)c1cc(OCc2ccccc2)cc(OCc2ccccc2)c1 | 88.3 µM
O=C1Nc2cccnc2N(C2CC2)c2ncccc21 | 1000 µM
CCCCNC(=O)Oc1nsnc1-c1c(Cl)cccc1Cl | 129 µM
COC(=O)C1CSC(c2cccnc2)N1S(=O)(=O)c1cccc2c(N(C)C)cccc12 | >1000 µM
O=C(NCCCCN1CCCN(CCCCNC(=O)OCc2ccccc2)CCCN(CCCCNC(=O)OCc2ccccc2)CCN(CCCCNC(=O)OCc2ccccc2)CCC1)OCc1ccccc1 | 50 µM
CC(=O)OC[C@H]1O[C@@H](n2cc(C)c(=O)[nH]c2=O)C[C@@H]1N(C)OC(C)=O | >250 µg/mL
O=C(NCCCCCCN1CCCN(CCCCCCNC(=O)OCc2ccccc2)CCCN(CCCCCCNC(=O)OCc2ccccc2)CCN(CCCCCCNC(=O)OCc2ccccc2)CCC1)OCc1ccccc1 | 1 µM
Cc1c(Sc2ccccc2)n(COCCO)c(=O)[nH]c1=O | 740 µM
O=C(/C=C/c1ccc(O)c(O)c1)c1ccc(O)cc1O | 3.3 µM
Cc1cn([C@@H]2O[C@H](CO[Si](C)(C)C(C)(C)C)[C@@]3(OS(=O)(=O)C=C3N)[C@H]2O[Si](C)(C)C(C)(C)C)c(=O)[nH]c1=O | 12 µM
CCCCCCN(C)C(=O)Oc1nsnc1-c1c(Cl)cccc1Cl | 32.7 µM
Cc1cccc(Cc2cc(=O)[nH]c(OC3CCCCC3)n2)c1 | >335 µM
CN(C)c1cccc2c(S(=O)(=O)N3CCSC3c3cccnc3)cccc12 | 1830 µM
CC(C)NC(=O)c1cnnn1C1OC(CO[Si](C)(C)C(C)(C)C)C2(OS(=O)(=O)C=C2N)C1O[Si](C)(C)C(C)(C)C | >250 µM
c1cc(CN2CCCNCCNCCCNCC2)ccc1CN1CCCNCCNCCCNCC1 | >1 µg/mL
O=c1[nH]c2c(c(=O)[nH]1)C(c1ccccc1)c1c([nH]c(=O)[nH]c1=O)O2 | >383 µM
Cc1cn([C@H]2C[C@H](N(C)O)[C@@H](CO)O2)c(=O)[nH]c1=O | 181 µg/mL
Nc1nc(=O)n([C@@H]2CO[C@H](CO)S2)cc1F | >500 µM
CC(C)=CCc1c(O)cc(-c2cc3ccc(O)cc3o2)cc1O | 19 µg/mL
Cc1ccnc2c1NC(=O)c1cccnc1N2C1CC1 | 155 µM
CN(C)c1cccc2c(S(=O)(=O)N3CCSC3c3ccncc3)cccc12 | >5.56 µM
CN(C)C(=O)c1cnnn1[C@@H]1O[C@H](CO[Si](C)(C)C(C)(C)C)C2(OS(=O)(=O)C=C2N)[C@H]1O[Si](C)(C)C(C)(C)C | 20 µM
NCCCCN1CCCN(CCCCN)CCCN(CCCCN)CCN(CCCCN)CCC1 | 10 µM
Cc1cccc(Cc2nc(OC(C)C)[nH]c(=O)c2C)c1 | >367 µM
C=CCN1Cc2cccc3[nH]c(=O)n(c23)C[C@@H]1C | 674 µM
O=C(O)CSc1ccc2c(c1)c(=O)c1ccccc1n2C1CC1 | >400 µg/mL
c1ccc(CNCCCCCN2CCCN(CCCCCNCc3ccccc3)CCCN(CCCCCNCc3ccccc3)CCN(CCCCCNCc3ccccc3)CCC2)cc1 | 10 µM
Nc1nc(=O)n([C@@H]2CS[C@H](CO)O2)cc1F | >200 µM
COc1ccc2c(Cc3c(-c4ccccc4)[nH]c4ccccc34)c(OC(C)=O)ccc2c1 | 19 µM
CC1(C)[C@@H](O[C@H]2O[C@H](C(=O)O)[C@@H](O)[C@H](O)[C@H]2O[C@@H]2O[C@H](C(=O)O)[C@@H](O)[C@H](O)[C@H]2O)CC[C@]2(C)[C@H]3C(=O)C=C4[C@@H]5C[C@@](C)(C(=O)O)CC[C@]5(C)CC[C@@]4(C)[C@]3(C)CC[C@@H]12 | 2542 µM
COc1nc(=O)[nH]c2c1C(c1ccc(Cl)cc1)c1c(OC)nc(=O)[nH]c1O2 | >347 µM
CC(=O)Oc1ccc(/C=C/C(=O)O[C@H](C(=O)O)[C@H](OC(=O)/C=C/c2ccc(OC(C)=O)c(OC(C)=O)c2)C(=O)O)cc1OC(C)=O | 60 µM
Nc1ccn([C@H]2CC[C@@H](CO)O2)c(=O)n1 | 232 µM
Cc1cn([C@H]2C[C@H](N=[N+]=[N-])[C@@H](CO)O2)c(=O)[nH]c1=O | 8 µM
Clc1nc(Cl)c2c(n1)Oc1nc(Cl)nc(Cl)c1C2c1ccccc1 | 17.5 µM
COc1c2c(cc(O)c1CC=C(C)C)OCC(c1ccc(O)cc1O)=C2 | 10 µg/mL
CC(C)(C)[Si](C)(C)OCC1OC(n2nncc2C(=O)NC2CCCC2)C(O[Si](C)(C)C(C)(C)C)C12OS(=O)(=O)C=C2N | >250 µM
O=C(O)c1cn(C2CC2)c2c(OC(F)F)c(N3CCN(c4ncccn4)CC3)c(F)cc2c1=O | 18 µM
O=C(O[C@@H]1Cc2c(O)cc(O)cc2O[C@@H]1c1ccc(O)c(O)c1)c1cc(O)c(O)c(O)c1 | 4.6 µg/mL
CCOCn1c(Sc2ccccc2)c(CC)c(=O)[nH]c1=O | 146 µM
Cc1cn([C@H]2C[C@H](N=[N+]=[N-])[C@@H](CO)O2)c(=O)[nH]c1=O | 80 µM
Cc1cn([C@@H]2O[C@@H]3[C@H](O)CO[C@]3(CO)[C@H]2O)c(=O)[nH]c1=O | >100 µM
C[C@H](Cn1cnc2c(=O)[nH]c(N)nc21)OCP(=O)(O)O | >333 µM
FC(F)(F)c1ccnc2c1NC(=NC1CC1)c1cccnc1N2C1CC1 | >200 µM
CC(C)=CCN1Cc2cccc3[nH]c(=O)n(c23)CC1C | 840 µM
O=C(NCCCCCCN1CCCN(CCCCCCNC(=O)OCc2ccccc2)CCN(CCCCCCNC(=O)OCc2ccccc2)CCCN(CCCCCCNC(=O)OCc2ccccc2)CC1)OCc1ccccc1 | 1 µM
Nc1nc(N)c2ncn(CCOCP(=O)(O)O)c2n1 | 48 µM
C=CC1=C(C)C(/C=c2/[nH]/c(=C/c3[nH]c(/C=C4/NC(=O)C(C)=C4C=C)c(C)c3CCC(=O)O)c(CCC(=O)O)c2C)=NC1=O | >800 µg/mL
CC(C)CN(C[C@@H](O)[C@H](Cc1ccccc1)NC(=O)O[C@H]1CCOC1)S(=O)(=O)c1ccc(N)cc1 | 89 µM
CC(=O)Oc1ccc2ccccc2c1Cc1c[nH]c2ccc(Br)cc12 | 22 µM
Cc1cc(C)cc(Cc2[nH]c(=O)[nH]c(=O)c2C)c1 | >410 µM
COc1ccc2ccc(OC(C)=O)c(Cc3c(-c4ccccc4)[nH]c4ccccc34)c2c1 | 15 µM
COC(=O)[C@@H](NC(=O)Cc1ccccc1)[C@@H]1N[C@@H](C(=O)NCCNC(=O)[C@@H]2N[C@@H]([C@H](NC(=O)Cc3ccccc3)C(=O)OC)SC2(C)C)C(C)(C)S1 | >100 µM
CCc1cc(NCc2cc3c(Cl)ccc(Cl)c3o2)c(=O)[nH]c1C | >60 µM
Cc1cn([C@H]2C[C@H](N=[N+]=[N-])[C@@H](CO)O2)c(=O)[nH]c1=O | 84 µM
CC(C)(C)[Si](C)(C)OCC1OC(n2nncc2C(=O)NC2CCC2)C(O[Si](C)(C)C(C)(C)C)C12OS(=O)(=O)C=C2N | >250 µM
Nc1ncnc2c1ncn2[C@H]1CC[C@@H](CO)O1 | >250 µM
Nc1ccn([C@H]2CC[C@@H](CO)O2)c(=O)n1 | 87 µM
CC(C)=CCc1cc([C@H]2Oc3c(ccc(O)c3CC=C(C)C)C(=O)[C@@H]2O)ccc1O | 12 µg/mL
CCc1cc(NCc2nc3c(C)ccc(C)c3o2)c(=O)[nH]c1C | >60 µM
COc1ccc2[nH]cc(Cc3c(OC(C)=O)ccc4cc(Br)ccc34)c2c1 | 20 µM
CC(=O)c1cc(NCc2nc3c(Cl)ccc(Cl)c3o2)c(=O)[nH]c1C | >60 µM
CC(C)=CCc1c(O)cc(O)c(CC=C(C)C)c1CCc1ccc(O)c(O)c1 | 18 µg/mL
O=C(N[C@@H](Cc1ccccc1)C[C@H](O)[C@H](Cc1ccccc1)NC(=O)OCc1ccccc1)OCc1ccccc1 | >100 µM
C1CNCCNCCNCCN1 | 20 µM
Cc1cccc(Cc2nc(OCC(C)C)[nH]c(=O)c2C)c1 | 210 µM
CCN(CC)C(=O)Oc1nsnc1-c1c(Cl)cccc1Cl | 326 µM
CCN1c2ncccc2N(C)C(=S)c2oc3cccnc3c21 | >250 µM
COc1ccc2ccc(OC(C)=O)c(Cc3c(C)[nH]c4ccccc34)c2c1 | 48 µM
CC(=O)c1ccc(C)cc1NC(C(N)=O)c1c(Cl)cccc1Cl | 33 µM
Cc1cc(C)cc(Cc2nc(OC3CCCC3)[nH]c(=O)c2C)c1 | >320 µM

Repeating the final 11 entries:

compound	result
COc1ccc2[nH]cc(Cc3c(OC(C)=O)ccc4cc(Br)ccc34)c2c1	20 µM
CC(=O)c1cc(NCc2nc3c(Cl)ccc(Cl)c3o2)c(=O)[nH]c1C	>60 µM
CC(C)=CCc1c(O)cc(O)c(CC=C(C)C)c1CCc1ccc(O)c(O)c1	18 µg/mL
O=C(N[C@@H](Cc1ccccc1)C[C@H](O)[C@H](Cc1ccccc1)NC(=O)OCc1ccccc1)OCc1ccccc1	>100 µM
C1CNCCNCCNCCN1	20 µM
Cc1cccc(Cc2nc(OCC(C)C)[nH]c(=O)c2C)c1	210 µM
CCN(CC)C(=O)Oc1nsnc1-c1c(Cl)cccc1Cl	326 µM
CCN1c2ncccc2N(C)C(=S)c2oc3cccnc3c21	>250 µM
COc1ccc2ccc(OC(C)=O)c(Cc3c(C)[nH]c4ccccc34)c2c1	48 µM
CC(=O)c1ccc(C)cc1NC(C(N)=O)c1c(Cl)cccc1Cl	33 µM
Cc1cc(C)cc(Cc2nc(OC3CCCC3)[nH]c(=O)c2C)c1	>320 µM